System: MT2
Test: Cytotoxicity against human MT2 cells infected with HIV1 NL4.3 by MTT assay
Type: cell-based

`Cc1cc(C#N)cc(C)c1Oc1nc(Nc2ccc(C#N)cc2)nc(N)c1Br` [ETRAVIRINE] was tested, and the CC50 was 11 µM.

Source: ChEMBL document CHEMBL1921799, “Computationally-guided optimization of a docking hit to yield catechol diethers as potent anti-HIV agents” (J Med Chem, 2011)
